Results of unrelated studies side by side (data: NIAID ChemDB).

All rows: toxicity to cultured cells; cells: HepG2; read-out: CC50

Blank or dashed fields: not listed here. Lines come from different laboratories, so protocols vary. a–b is a range or a potency band. CCn: concentration that lowers growth or viability of the cells by n%.

compound	read by	value
CNC(=O)[C@H]1CC[C@@H](n2c(NC(C)C)nc3c(c2=O)C[C@@H](C)N(C(=O)c2ccc(Br)c(C(F)(F)F)c2)C3)C1	luminescence	29.8 µM
Cc1c(C(=O)Nc2cc(F)c(F)c(F)c2)c(C)n(C)c1C(=O)C(=O)NC1(C)CCC(O)CC1	MTT	>30 µM
CC(C)NC(=O)C1CCC(n2c(NC(C)C)nc3c(c2=O)C[C@@H](C)N(C(=O)c2ccc(Cl)c(C(F)(F)F)c2)C3)CC1	luminescence	>50 µM
Cc1cc(NC(=O)c2c(C)c(C(=O)C(=O)N[C@H]3C[C@@H]4CC[C@H]3C4)n(C)c2C)ccc1F	MTT	5–30 µM
CC(C)N(Cc1cccc(OCCCCCC(=O)OC(=O)O)c1)C(=O)c1ccc(-c2cccc(N(C)C)c2)cc1	-	>20 µM
COc1ccc(F)cc1CNCCCNc1ccnc2cc(CCc3ccccc3)ccc12	fluorescence	4.24 µM
C=CCCCC(=O)NCC(c1ccc2c(c1)OCO2)C1OCCO1	-	<7.5 µM
COc1ccc(F)cc1CNCCCNc1ccnc2cc(Oc3ccccc3)ccc12	fluorescence	1.5 µM
CC(C)N(Cc1cccc(OCCCCCC(=O)OC(=O)O)c1)C(=O)c1ccc(-c2cccc(-c3ccccc3)c2)cc1	-	>20 µM
Cc1c(C(=O)Nc2ccc(F)c(C#N)c2)c(C)n(C)c1C(=O)C(=O)NC1(C)CC(O)C1	MTT	>30 µM
CCOC(=O)CCCCCOc1cccc(CN(C(=O)c2ccc(-c3cccc(OC(F)(F)F)c3)cc2)C(C)C)c1	-	>20 µM
Cc1cc(NC(=O)c2c(C3CC3)c(C(=O)C(=O)NCC(C)(C)O)n(C)c2C)ccc1F	MTT	>30 µM
FC(F)(F)c1cccc(Cc2ccc3c(NCCCNCc4ccco4)ccnc3c2)c1	fluorescence	3.19 µM
CNC(=O)c1cnc(-n2c(N(C)c3ccccc3)nc3c(c2=O)C[C@@H](C)N(C(=O)c2ccc(Cl)c(C(F)(F)F)c2)C3)n1C	luminescence	>50 µM
COc1ccc(-c2cc(C(=O)O)c3ccccc3n2)cc1OC	-	>20 µM
COc1ccc(-c2ccc3c(NCCCNCc4cccc(OC)c4O)ccnc3c2)cc1	fluorescence	1.6 µM
CNC(=O)[C@@H]1CC[C@H](n2c(NC(C)C)nc3c(c2=O)C[C@@H](C)N(C(=O)c2ccc(Cl)c(C(F)(F)F)c2)C3)C1	luminescence	15.6 µM
Cc1c(C(=O)N2CCC(C)(O)CC2)c(C)n(C)c1C(=O)C(=O)NC(C)(C)C	MTT	>30 µM
CC(C)Oc1cccc(-c2ccc(C(=O)N(Cc3cccc(OCCCCCC(=O)OC(=O)O)c3)C(C)C)cc2)c1	-	>20 µM
Cc1cc(NC(=O)c2c(C)c(C(=O)C(=O)NC3(C)CC(O)C3)n(C)c2C(C)C)ccc1F	MTT	>30 µM
C=CCCC1=NCC(O[Si](C)(C)C(C)(C)C)c2cc(OC)c(OC)cc21	-	>20 µM
CC(=O)N1CC[C@@H](NC(=O)C(=O)c2c(C)c(C(=O)Nc3ccc(F)c(C)c3)c(C)n2C)[C@H](F)C1	MTT	>30 µM
COc1cccc(CNCCCNc2ccnc3cc(-c4ccc(C(F)(F)F)cc4)ccc23)c1O	fluorescence	2.21 µM
CCc1c(C(=O)Nc2ccc(F)c(C)c2)c(C)n(C)c1C(=O)C(=O)NC1CCC(O)CC1	MTT	>30 µM
C#CCCC(=O)CCCc1ccc(OC)c(OC)c1	-	<7.5 µM